## PSTVd loop 6 mutant pool in Nicotiana benthamiana

Source: Wu et al. 2024 (doi:10.1371/journal.ppat.1012142), supplementary data.

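A pool of all variants was put on leaves of three Nicotiana benthamiana plants. Progeny were sequenced from the inoculated region (day 5), the margin of the inoculated leaf (day 10) and systemic leaves (day 12).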

Region: loop 6 of PSTVd (intermediate strain), upper and lower strand joined, each 5' to 3', the first 5 letters being the upper strand, closing pairs included. Wild type: UGACCGCGAG. Varied positions (N): UNNNCGNNNG.

Numbers give reads per thousand; 0 = not seen among the reads, higher = more abundant.
Each site shows the three plants.
"Pool" is the share in the plasmid pool used as inoculum, on the same scale.
The inoculated region was read from the minus strand, the other sites from the plus strand.
The authors trace changes outside the varied positions to PCR and sequencing errors or to mutation in the plant; presence does not show that a variant is infectious alone.
For reference, wild type rose from 20.7 per thousand in the pool to 195, 198, 203 (inoculated region), 629, 591, 734 (leaf margin) and 942, 870, 868 (systemic leaves).
With 36,220-57,551 reads a sample, very low values are single reads.

sequence,pool,inoculated region,leaf margin,systemic leaves
UCUGCAGCGG,0.0523,0 / 0 / 0,0 / 0 / 0,0 / 0 / 0
UCUGCGAAAG,0.288,0.104 / 0.0898 / 0.0369,0 / 0 / 0.0232,0 / 0 / 0
UCUGCGAACG,0.314,0.0348 / 0.108 / 0.0184,0 / 0 / 0.0232,0 / 0 / 0
UCUGCGAAGG,0.209,0.0869 / 0.0539 / 0.0553,0 / 0 / 0,0 / 0 / 0
UCUGCGAAUG,0.327,0.139 / 0.0898 / 0.0553,0 / 0 / 0.0232,0 / 0 / 0
UCUGCGACAG,0.222,0.139 / 0.0898 / 0.0184,0.0276 / 0 / 0.0232,0 / 0 / 0
UCUGCGACCG,0.235,0.0869 / 0.0719 / 0.0922,0 / 0 / 0,0 / 0 / 0
UCUGCGACGG,0.353,0.0521 / 0.0898 / 0.0369,0 / 0 / 0,0 / 0 / 0
UCUGCGACUG,0.405,0.0521 / 0.108 / 0.0369,0.0276 / 0 / 0,0 / 0 / 0
UCUGCGAGAG,0.275,0.0348 / 0.126 / 0.0922,0 / 0 / 0.0232,0 / 0 / 0
UCUGCGAGCG,0.235,0.104 / 0.0898 / 0.0553,0 / 0 / 0.0232,0 / 0 / 0
UCUGCGAGGG,0.248,0.0348 / 0.0719 / 0.0553,0 / 0 / 0,0 / 0 / 0
UCUGCGAGUG,0.157,0.0869 / 0.0719 / 0.111,0.0276 / 0 / 0.0232,0 / 0 / 0
UCUGCGAUAG,0.288,0.191 / 0.126 / 0.0738,0 / 0 / 0.186,0 / 0 / 0
UCUGCGAUCG,0.248,0.139 / 0.0539 / 0.111,0 / 0 / 0,0 / 0 / 0
UCUGCGAUGG,0.275,0.122 / 0.0359 / 0.0738,0 / 0 / 0.0232,0 / 0 / 0
UCUGCGAUUG,0.445,0.0869 / 0.0359 / 0.111,0 / 0 / 0,0 / 0 / 0
UCUGCGAUUU,0.0131,0 / 0 / 0,0 / 0 / 0,0 / 0 / 0
UCUGCGCAAG,0.183,0.191 / 0.126 / 0.111,0 / 0 / 0,0 / 0 / 0
UCUGCGCACG,0.170,0.0869 / 0.0359 / 0.0922,0 / 0 / 0,0 / 0 / 0
UCUGCGCAGG,0.170,0.0869 / 0.0539 / 0.0738,0.0276 / 0 / 0,0 / 0 / 0
UCUGCGCAUG,0.248,0.0695 / 0.144 / 0.0369,0 / 0 / 0,0 / 0 / 0.0205
UCUGCGCCAG,0.288,0.0521 / 0.108 / 0.0922,0.0276 / 0 / 0,0 / 0 / 0
UCUGCGCCCG,0.471,0.104 / 0.0898 / 0.0922,0 / 0 / 0,0 / 0 / 0.0205
UCUGCGCCGG,0.261,0.156 / 0 / 0.0369,0 / 0 / 0.0232,0 / 0 / 0
UCUGCGCCUG,0.379,0.122 / 0 / 0.0553,0 / 0 / 0,0 / 0 / 0.267
UCUGCGCGAG,0.261,0.174 / 0.180 / 0.166,0.0276 / 0.0252 / 0.0232,0.0359 / 0 / 0.431
UCUGCGCGCG,0.314,0.139 / 0.108 / 0.0369,0 / 0 / 0.0232,0 / 0 / 0.0205
UCUGCGCGGG,0.196,0.104 / 0.0719 / 0.0553,0.0552 / 0 / 0,0 / 0 / 0
UCUGCGCGUG,0.261,0.139 / 0.0719 / 0.0184,0.0276 / 0 / 0,0 / 0 / 0
UCUGCGCUAG,0.105,0.156 / 0.108 / 0.129,0 / 0 / 0,0 / 0 / 0
UCUGCGCUCG,0.196,0.156 / 0.108 / 0.0553,0 / 0 / 0,0 / 0 / 0
UCUGCGCUCU,0.0131,0 / 0 / 0,0 / 0 / 0,0 / 0 / 0
UCUGCGCUGG,0.288,0.0695 / 0.0539 / 0.0553,0.0552 / 0 / 0,0 / 0 / 0.0205
UCUGCGCUUG,0.301,0.156 / 0.0539 / 0.0738,0 / 0 / 0,0 / 0 / 0
UCUGCGGAAG,0.183,0.0869 / 0.0898 / 0.0553,0 / 0 / 0.0232,0 / 0 / 0
UCUGCGGACG,0.275,0.122 / 0.0359 / 0.111,0 / 0 / 0,0 / 0 / 0
UCUGCGGAGG,0.105,0.122 / 0.0898 / 0.129,0 / 0 / 0,0 / 0 / 0
UCUGCGGAUG,0.196,0.0521 / 0.0898 / 0.184,0.0276 / 0 / 0,0 / 0 / 0
UCUGCGGCAG,0.235,0.104 / 0.0180 / 0.148,0 / 0 / 0,0 / 0 / 0
UCUGCGGCCG,0.183,0.0348 / 0.0898 / 0.111,0 / 0 / 0,0 / 0 / 0
UCUGCGGCGG,0.222,0.0348 / 0.0898 / 0.111,0 / 0 / 0,0 / 0 / 0
UCUGCGGCUG,0.183,0.0521 / 0.0539 / 0.111,0 / 0 / 0,0 / 0 / 0
UCUGCGGGAG,0.222,0.0695 / 0.0180 / 0.0553,0 / 0 / 0,0 / 0 / 0
UCUGCGGGCG,0.209,0.174 / 0.108 / 0.0922,0 / 0 / 0,0 / 0 / 0
UCUGCGGGGG,0.196,0.139 / 0.126 / 0.111,0 / 0 / 0,0 / 0 / 0
UCUGCGGGUC,0.0131,0 / 0 / 0,0 / 0 / 0,0 / 0 / 0
UCUGCGGGUG,0.183,0.0869 / 0.0539 / 0.0369,0 / 0 / 0.0232,0 / 0 / 0
UCUGCGGUAG,0.314,0.139 / 0.0898 / 0.0922,0 / 0 / 0,0 / 0 / 0
UCUGCGGUCG,0.261,0.0695 / 0.0180 / 0.0922,0 / 0 / 0,0 / 0 / 0
UCUGCGGUGG,0.471,0.156 / 0.162 / 0.0553,0 / 0 / 0,0 / 0 / 0

Excerpt, the final 6 entries:

sequence	pool	inoculated region	leaf margin	systemic leaves
UCUGCGGGGG	0.196	0.139 / 0.126 / 0.111	0 / 0 / 0	0 / 0 / 0
UCUGCGGGUC	0.0131	0 / 0 / 0	0 / 0 / 0	0 / 0 / 0
UCUGCGGGUG	0.183	0.0869 / 0.0539 / 0.0369	0 / 0 / 0.0232	0 / 0 / 0
UCUGCGGUAG	0.314	0.139 / 0.0898 / 0.0922	0 / 0 / 0	0 / 0 / 0
UCUGCGGUCG	0.261	0.0695 / 0.0180 / 0.0922	0 / 0 / 0	0 / 0 / 0
UCUGCGGUGG	0.471	0.156 / 0.162 / 0.0553	0 / 0 / 0	0 / 0 / 0